Compound potency records, mixed from different reports. Data source: NIAID ChemDB in PubChem.

All rows: tests in culture; species: Candida parapsilosis; read-out: MIC

a–b is a range or a potency band. Conditions beyond the fields shown may differ between rows.

O=C(NNC(=S)Nc1ccc(F)cc1F)c1cc2ccccc2[nH]1 ; strain: ATCC 22019 ; method: agar ; value: 100 µg/mL
CO/N=C/C(C)(C)C(O)(Cn1cncn1)c1ccc(Cl)cc1 ; method: visual reading ; value: 4 µg/mL
O=c1[nH][nH]c2c1C(c1ccc(Br)cc1)CC(c1ccc3ccccc3c1)=C2 ; value: 6.25 µg/mL
Nn1c(SCC(O)(Cn2cncn2)c2ccc(F)cc2F)nnc1-c1ccc(Cl)cc1 ; strain: ATCC 22019 ; method: broth dilution ; value: >64 µg/mL
C[C@@H]1C(=O)N(CCc2ccccc2)C(=O)[C@@H]1C ; strain: CCC 124-2000 ; method: broth dilution / turbidity ; value: 62.5 µg/mL
CCCc1ccc(NS(=O)(=O)c2ccc(CN(C)CC(O)(Cn3cncn3)c3ccc(F)cc3F)cc2)cc1 ; strain: CAPA2 ; method: resazurin ; value: 0.23 µg/mL
COc1nc2ccc(Br)cc2cc1[C@@H](c1ccccc1)[C@@](O)(CCN(C)C)c1cccc2ccccc12 ; strain: ATCC 22019 ; method: MTT ; value: 6.25 µM
Cc1nnsc1C(=O)NNC(=S)Nc1ccc(F)cc1 ; strain: ATCC 22019 ; method: agar ; value: 100 µg/mL
CN(Cc1ccc(S(N)(=O)=O)cc1)CC(O)(Cn1cncn1)c1ccc(F)cc1F ; strain: CAPA1 ; method: resazurin ; value: 0.91 µg/mL
O=C(CCn1ccnc1)c1cccc(O)c1 ; strain: RTCC 1018 ; method: broth dilution ; value: >64 µg/mL
CCCCCCCCCCCCCCCC(=O)NC(CCCCN)C(=O)NC(CCCCN)C(N)=O ; strain: ATCC 4873 ; method: broth dilution ; value: 2 µg/mL
O=C(NNC(=S)Nc1ccc(F)cc1)c1cc2ccccc2[nH]1 ; strain: ATCC 22019 ; method: agar ; value: 100 µg/mL
C[C@@H]1CC(=O)N(Cc2ccccc2)C1=O ; strain: CCC 124-2000 ; method: broth dilution / turbidity ; value: 62.5 µg/mL
CC(C)c1ccc(NS(=O)(=O)c2ccc(CN(C)CC(O)(Cn3cncn3)c3ccc(F)cc3F)cc2)cc1 ; strain: CAPA2 ; method: resazurin ; value: 0.62 µg/mL
O=C(CCn1ccnc1)c1ccc(-c2ccccc2)cc1 ; strain: RTCC 1079 ; method: broth dilution ; value: 64 µg/mL
CCCCCCCC/C=C\CCCCCCCC(=O)N[C@H](C(=O)N1C[C@H](C)C[C@H]1C(=O)N[C@H](C(=O)N[C@@H](CCO)C(=O)N[C@@H](C)C=O)C(C)C)[C@@H](C)O ; strain: ATCC 22019 ; method: broth dilution / visual reading ; value: 2 µg/mL
C[C@@H]1CC(=O)N(c2ccc(F)cc2)C1=O ; strain: CCC 124-2000 ; method: broth dilution / turbidity ; value: 31.3 µg/mL
CC(C)(O)c1cn(-c2ccc(Cl)cc2)nn1 ; strain: URM 4889 ; method: broth dilution ; value: 64 µg/mL
OC(Cn1cncn1)(Cn1cncn1)c1ccc(F)cc1F ; method: agar ; value: 6.2–25 µg/mL
N=C(N)c1ccc(OCCCCCCOc2ccc(C(=N)N)cc2)cc1 ; strain: Cp1 ; method: agar diffusion / agar ; value: 26 µg/mL
CC1C(=O)N(CCCc2ccccc2)C(=O)C1C ; strain: CCC 124-2000 ; method: broth dilution / turbidity ; value: 125 µg/mL
Cc1ccc(C2CC(c3ccc4ccccc4c3)=Cc3[nH][nH]c(=O)c32)cc1 ; value: 25 µg/mL
Nn1c(SCC(O)(Cn2cncn2)c2ccc(Cl)cc2Cl)nnc1-c1ccncc1 ; strain: ATCC 22019 ; method: broth dilution ; value: >64 µg/mL
CC1C(=O)N(CCc2ccccc2)C(=O)C1C ; strain: CCC 124-2000 ; method: broth dilution / turbidity ; value: 250 µg/mL
C[C@H]1[C@H](O)[C@@H](C)/C=C/C=C/C=C/C=C/C=C/C=C/C=C/[C@H](O[C@@H]2O[C@H](C)[C@@H](O)[C@H](N)[C@@H]2O)C[C@@H]2O[C@](O)(C[C@@H](O)C[C@@H](O)CC[C@H](O)[C@@H](O)C[C@@H](O)CC(=O)O[C@H]1C)C[C@H](O)[C@H]2C(=O)O ; strain: MTCC 1965 ; method: absorbance ; value: 0.5 µg/mL
Nn1c(SCC(O)(Cn2cncn2)c2ccc(Cl)cc2Cl)nnc1-c1ccc(Cl)cc1 ; strain: ATCC 22019 ; method: broth dilution ; value: >64 µg/mL
OC(CCn1ccnc1)c1cccc(C(O)c2ccc(Br)cc2)c1 ; strain: RTCC 1018 ; method: broth dilution ; value: >64 µg/mL
Clc1ccc(Cl)c(Oc2ccc(NC(=NCCCNc3ccnc4cc(Cl)ccc34)Nc3ccccc3)cc2)c1 ; strain: ATCC 22019 ; method: broth dilution / absorbance ; value: 50 µg/mL
COc1cc(C[C@@]2(O)CO[C@H](c3ccc(O)c(OC)c3)[C@H]2CO[C@@H]2O[C@H](CO)[C@@H](O)[C@H](O)[C@H]2O)ccc1O ; strain: ATCC 22019 ; method: MTT ; value: 1.5 µg/mL
Nn1c(SCC(O)(Cn2cncn2)c2ccc(F)cc2F)nnc1-c1ccc(O)cc1 ; strain: ATCC 22019 ; method: broth dilution ; value: >64 µg/mL
O=c1[nH][nH]c2c1C(c1ccc(F)cc1)CC(c1ccc3ccccc3c1)=C2 ; value: 6.25 µg/mL
CN(Cc1ccc(NS(=O)(=O)c2ccc([N+](=O)[O-])cc2)cc1)CC(O)(Cn1cncn1)c1ccc(F)cc1F ; strain: CAPA2 ; method: resazurin ; value: 1.7 µg/mL
O=C1c2ccccc2CC1Cn1ccnc1 ; strain: RTCC 1079 ; method: broth dilution ; value: 4 µg/mL
CC1CC(=O)N(CCc2ccccc2)C1=O ; strain: CCC 124-2000 ; method: broth dilution / turbidity ; value: 125 µg/mL
O=C(NNC(=S)Nc1ccc(F)cc1)c1cccs1 ; strain: ATCC 22019 ; method: agar ; value: 50 µg/mL
O=C1C(=O)c2ccccc2C2=C1CC(CI)O2 ; strain: Clinical isolate ; method: broth dilution ; value: 32 µg/mL
COc1ccc(N2C(=O)C[C@@H](C)C2=O)cc1 ; strain: CCC 124-2000 ; method: broth dilution / turbidity ; value: 62.5 µg/mL

4 of the rows above, restated:

O=C(NNC(=S)Nc1ccc(F)cc1F)c1cc2ccccc2[nH]1 ; strain: ATCC 22019 ; method: agar ; value: 100 µg/mL
CN(Cc1ccc(S(N)(=O)=O)cc1)CC(O)(Cn1cncn1)c1ccc(F)cc1F ; strain: CAPA1 ; method: resazurin ; value: 0.91 µg/mL
CCCCCCCC/C=C\CCCCCCCC(=O)N[C@H](C(=O)N1C[C@H](C)C[C@H]1C(=O)N[C@H](C(=O)N[C@@H](CCO)C(=O)N[C@@H](C)C=O)C(C)C)[C@@H](C)O ; strain: ATCC 22019 ; method: broth dilution / visual reading ; value: 2 µg/mL
O=c1[nH][nH]c2c1C(c1ccc(Br)cc1)CC(c1ccc3ccccc3c1)=C2 ; value: 6.25 µg/mL